# B1: chimeric antibody 14F8 (variable regions of mouse m14F8 on a human IgG1 constant region backbone) (antibody, V domains shown)
# VH: QVQLKESGPGLVAPSQSLSITCTVSGFSLTSYDISWIRQPPGKGLEWLGVIWTGGVTNYNSAFLSRLSISKDNSKSQVFLKMNSLQTDDTAIYYCVREGDWFFDVWGAGTTVTVSS
# VL: DVLMTQTPLSLPVSLGDQASISCRSSQSIVHSNGNTYLEWYLQKPGQSPQLLIYKVSNRFSGVPDRFSGSGSGTDFTLKINRVEAEDLGLYYCFQASHVPYTFGGGTKLEIK
# notes: also called Humanized 14F8; m14F8 (mouse parent)
# Target: soluble recombinant NiV-G protein (Bangladesh strain) (Nipah virus, Bangladesh isolate …, UniProt Q4VCP5, strain)
binder,measurement,value
B1,Kd,0.58 nM
